This passage reports inhibition results from PubChem BioAssay AID1626 (SRMLSC, 2009).

The list shows a part of the results. Activity calls are given as the source filed them. Rule as the data show it: inconclusive = inhibition above about 80% without an active follow-up result; inactive = below that; test concentration not stated here.

A short description of this experiment: M. tuberculosis H37Rv growth inhibitors, H37Rv strain (AID 1626).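 Also: bacteria incubated seven days before Alamar blue readout; 0% = bacteria only wells and 100% = bacteria with antibiotic wells.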 To be noted: hits give high values, concentration not given here.
Turning to `NC(=O)c1cc([N+](=O)[O-])cc([N+](=O)[O-])c1N`, the inhibition is inactive: -6.02%.

Take `Clc1ccc(Cl)c(NC2=NCC(CBr)S2)c1` (stereo unspecified): the inhibition is inactive: -7.79%. As for `CN1CCCC(OC(=O)C(c2ccccc2)c2ccccc2)C1` (stereo unspecified), the figure is inactive: 4.69%. Next, `Cc1ccc(OP(=O)(Nc2nccs2)Oc2ccc(C)cc2)cc1`: inactive: 3.32%. Next, `COc1ccccc1OP(=O)(Nc1ccc(C)cn1)Oc1ccccc1OC`: inactive: 3.81%. On to `COc1ccc(N/C(=N/P(=O)(N2CCOCC2)N2CCOCC2)N2CCOCC2)cc1`, for which the inhibition is inactive: -1.75%. Next, `Cc1c2c(nc3ccccc13)SC(C(Cl)Cl)C2` (stereo unspecified): inactive: 3.76%; `Cc1cc(=O)[nH]c(N[N+](=O)[O-])n1`: inactive: -6.45%; `O=C(OC1CN2CCC1CC2)C12CC3CC(CC(C3)C1)C2` (stereo unspecified): inactive: -2.59%. As for `COc1cc(I)ccc1[As](=O)(O)O`, the figure is inactive: -6.74%. As for `COc1ccc2nc(NP(=O)(c3ccccc3)c3ccccc3)sc2c1`, the figure is inactive: 1.91%; as for `ClCCSc1nnc(-c2cccnc2)o1`, inactive: -12.2%; as for `CC(C)c1ccc(OP(=O)(Nc2ccccn2)Oc2ccccc2F)cc1` (stereo unspecified), inactive: -1.07%. Take `CC(C)NC(=O)NP(=O)(Oc1ccccc1)Oc1ccccc1`: the inhibition is inactive: 8.43%. As for `C[As](=O)(O)c1cccc(C(=O)O)c1`, the figure is inactive: -6.02%. Next, `O=[As](O)(c1ccc(O)cc1)c1ccccc1O`: inactive: 10.1%. `Cc1ccc2nc3c(c(C)c2c1)CC(C(Cl)Cl)S3` (stereo unspecified): the inhibition was inactive: -4.05%. As for `CCOC(=O)Nc1cccc([As](=O)(O)O)c1`, the inhibition is inactive: -6.24%. Consider `O=P(Nc1ccccn1)(c1cccc2ccccc12)c1cccc2ccccc12`, for which the inhibition was inactive: 3.34%. Next, `Cc1cc(SC(NC=O)C(Cl)(Cl)Cl)ncn1` (stereo unspecified): inactive: -0.85%; `O=[N+]([O-])c1ccc(Nc2ccc(Oc3ccc([N+](=O)[O-])cc3[N+](=O)[O-])cc2)c([N+](=O)[O-])c1`: inactive: 3.41%; `Cc1cc(SC(NC(=O)c2ccccc2)C(Cl)(Cl)Cl)nc(C(C)C)n1` (stereo unspecified): inactive: -5.31%.

Consider `CCOC(=O)c1ccc(NC(=O)C(C)(CCl)SC)cc1` (stereo unspecified), for which the inhibition was inactive: -5.69%. Next, `CCC(C)N(CC(C)C)C(=S)SC(NC(C)=O)C(Cl)(Cl)Cl` (stereo unspecified): inactive: -3.37%.

As to `COP1(=S)c2c(C)nn(CCC#N)c2N=C(c2ccc(F)cc2)N1C` (stereo unspecified), the inhibition was inactive: 0.5%. Next, `CC(C)/C=N\N=C(\N)N[N+](=O)[O-]`: inactive: 2.36%; `CN(C(=O)Cc1ccc(Cl)c(Cl)c1)[C@@H]1CCCC[C@H]1N1CCCC1`: inactive: 3.64%; `CC1(CBr)Cn2c(nc3ccccc3c2=O)S1` (stereo unspecified): inactive: -10.6%. Take `O=[As](O)(c1ccccc1Br)c1ccccc1Br`: the inhibition is inactive: -6.63%. In the case of `O=P1(Nc2ccccn2)COc2ccccc2OC1`, the inhibition is inactive: -0.11%. As for `CN(CCCl)Cc1cc(Cl)c(NC2=NCCN2)c(Cl)c1`, the figure is inactive: -2.27%; as for `CC(C)(C)C(=O)NC(Sc1ncccn1)C(Cl)(Cl)Cl` (stereo unspecified), inactive: 1.16%. Next, `Clc1n[nH]nc1-c1nn[nH][15n]1`: inactive: -1.95%.

As to `O=P1(Nc2ncccn2)COc2ccccc2OC1`, the inhibition is inactive: -3.64%. As for `Nc1cccc([As](=O)(O)c2ccccc2)c1`, the figure is inactive: -6.61%; as for `O=P1(Nc2ccc(Br)cn2)COc2ccccc2OC1`, inactive: -14.6%; as for `Cc1ccc(OCC(=O)OC2CN3CCC2CC3)cc1` (stereo unspecified), inactive: -5.49%.

Turning to `O=[As](O)(c1cccs1)c1cccs1`, the inhibition was inactive: 1.1%. Turning to `CC1CCC(C(C)C)C(OP(=O)(Nc2ccccn2)c2ccccc2)C1` (stereo unspecified), the inhibition is inactive: -0.2%. As for `Cc1nn(-c2ccccc2)c2c1P(=O)(N1CCOCC1)N(C)C(c1ccccc1)=N2` (stereo unspecified), the figure is inactive: -8.48%. Next, `CN(C)C1(CNC(=O)c2ccc(S(C)(=O)=O)cc2)CCCCC1`: inactive: -3.12%; `O=C(/C=C/c1ccccc1)OC1CN2CCC1CC2` (stereo unspecified): inactive: 0.98%.

Take `NC(=O)Nc1ccc([As](=O)(O)O)cc1`: the inhibition was inactive: -9.41%. As for `CN(C(=O)Cc1ccccc1)[C@@H]1CC[C@]2(CCCO2)C[C@H]1N1CCCC1`, the figure is inactive: -9.01%.

As to `CCOP1(=S)c2c(C)nn(CCC#N)c2N=C(c2ccc(F)cc2)N1C` (stereo unspecified), the inhibition was inactive: -7.14%. As for `CN(C(=O)Cc1ccc(Cl)c(Cl)c1)[C@H]1CC[C@@]2(CCCO2)C[C@@H]1N1CCCC1`, the figure is inactive: -1.74%; as for `O=[N+]([O-])c1ccc2c(c1)nnn2O`, inactive: 1.18%; as for `O=P(Nc1nccs1)(c1ccccc1)c1nc2ccccc2s1` (stereo unspecified), inactive: 15.9%.

As to `O=P(Nc1nccs1)(Oc1ccccc1)Oc1ccccc1`, the inhibition was inactive: 1.85%. Next, `CCOP1(=S)c2c(C)nn(CCC#N)c2N=C(c2ccccc2F)N1C` (stereo unspecified): inactive: 1.3%.

On to `CS(=O)(=O)c1cc([N+](=O)[O-])c2no[n+]([O-])c2c1`, for which the inhibition is inactive: -12.7%.

Regarding `Nc1ccccc1[As](=O)(O)c1ccccc1`, the inhibition was inactive: 6.07%.

On to `O=C(O)COc1ccc([As](=O)(O)O)cc1[N+](=O)[O-]`, for which the inhibition is inactive: -1.68%. As for `Nc1cccc2c([As](=O)(O)O)cccc12`, the figure is inactive: -10.5%. Next, `CCOP(=O)(Nc1cccc2ccccc12)OCC`: inactive: 0.04%; `COc1cc(C2NCCC3(OCCO3)C2(C)C)cc(OC)c1OC` (stereo unspecified): inactive: 2.21%; `O=C(OC1CN2CCC1CC2)c1ccc(Cl)cc1` (stereo unspecified): inactive: -7%. As for `COc1cc(C(=O)NCC2(N3CCOCC3)CCCCC2)cc(Cl)c1OC(C)C`, the figure is inactive: 8.36%; as for `O=[As](O)(O)c1cccnc1`, inactive: 2.66%; as for `O=[As](O)(c1cccc(O)c1)c1cccc(O)c1`, inactive: -6.2%.

On to `Cc1cccc(OCC(=O)OC2CN3CCC2CC3)c1` (stereo unspecified), for which the inhibition is inactive: -4.84%.
